Compound potency records, mixed from different reports. Data source: NIAID ChemDB in PubChem.

Common to all: enzyme or target tests; organism: HIV-1; protein: Protease; measure: inhibition

Percent inhibition refers to the dose given; in toxicity tests it is the harm to the cells.

O=C(NCc1ccncc1)[C@H](OCc1ccccc1)[C@H](O)[C@@H](O)[C@@H](OCc1ccccc1)C(=O)NCc1ccncc1 ; dose: 10 µM ; method: absorbance ; result: 0%
CC[C@H](C)C(O)C(C)(O)/C=C/C1=CC2=CC(=O)[C@](C)(O)[C@H](O)[C@H]2CO1 ; dose: 100 µg/mL ; result: 0%
Cc1cccc(C)c1OCC(=O)N[C@@H](Cc1ccccc1)[C@H](O)C(=O)N1CSC(C)(C)[C@H]1C(=O)NCc1cccnc1 ; dose: 0.05 µM ; method: HPLC ; result: 86.8%
Cc1ccc(NC(=O)[C@H](OCc2ccccc2)[C@H](O)[C@@H](O)[C@@H](OCc2ccccc2)C(=O)Nc2ccc(C)cc2O)c(O)c1 ; dose: 10 µM ; method: absorbance ; result: 0%
CC(C)CC(NC(=O)[C@@H](NC(=O)OCc1ccccc1)C(C)C)C(=O)C(F)(F)C(NC(=O)[C@@H](NC(=O)OCc1ccccc1)C(C)C)C(C)C ; dose: 0.001 µM ; method: fluorescence ; result: 62%
Cc1c(O)cccc1C(=O)N[C@@H](Cc1ccccc1)[C@H](O)C(=O)N1CSC(C)(C)[C@H]1C(=O)NCc1cccnc1 ; dose: 0.05 µM ; method: HPLC ; result: 62.6%
CC(=O)N[C@@H](Cc1ccccc1)C(O)[C@H](Cc1ccccc1)NC(C)=O ; dose: 50 µM ; method: fluorescence ; result: 68%
O=C(NCc1cccnc1)[C@H](OCc1ccccc1)[C@H](O)[C@@H](O)[C@@H](OCc1ccccc1)C(=O)NCc1cccnc1 ; dose: 10 µM ; method: absorbance ; result: 0%
O=c1[nH]c2ccc(S(=O)(=O)N3CCc4ccccc4C3)cc2[nH]c1=O ; dose: 150 µM ; result: 31.02%
CC(C)[C@H](NC(=O)CCc1ccccn1)C(=O)N[C@@H](Cc1ccccc1)[C@@H](O)[C@H](O)[C@H](Cc1ccccc1)NC(=O)[C@@H](NC(=O)CCc1ccccn1)C(C)C ; dose: 0.001 µM ; method: fluorescence ; result: 69%
COc1ccccc1CNC(=O)[C@H]1N(C(=O)[C@@H](O)[C@H](Cc2ccccc2)NC(=O)c2cccc(O)c2C)CSC1(C)C ; dose: 0.05 µM ; method: HPLC ; result: 65.8%
CC(=O)OC1C(COC(=O)/C=C/c2ccc(O)cc2)OC(OC2(COC(=O)/C=C/c3ccc(O)cc3)OC(COC(=O)/C=C/c3ccc(O)cc3)C(OC(C)=O)C2OC(=O)/C=C/c2ccc(O)cc2)C(O)C1O ; dose: 100 µg/mL ; method: substrate cleavage / fluorescence ; result: 50.45%
C[C@H]1[C@H](C)CC[C@]2(C(=O)O)CC[C@]3(C)C(=CC[C@@H]4[C@@]5(C)CC[C@H](O)C(C)(C)[C@@H]5CC[C@]43C)[C@H]12 ; dose: 1000 µg/mL ; method: substrate cleavage / fluorescence ; result: 83.7%
COc1ccc([C@@H]2CC(=O)c3c(O)cc(O)cc3O2)cc1O ; dose: 100 µg/mL ; method: FRET ; result: 7.2%
C=C(C)C1CC[C@]2(C)C(CC=C3C4[C@H](C)[C@@H](C)CC[C@]4(C)CC[C@]32C)[C@@]1(C)CCC(=O)O ; dose: 1000 µg/mL ; method: substrate cleavage / fluorescence ; result: 74.5%
CC(C)[C@H](NC(=O)OCc1ccccn1)C(=O)N[C@@H](Cc1ccccc1)[C@H](O)[C@H](O)[C@H](Cc1ccccc1)NC(=O)OC(C)(C)C ; dose: 0.005 µM ; method: fluorescence ; result: 67%
Cc1cc(O)ccc1NC(=O)[C@H](OCc1ccccc1)[C@H](O)[C@@H](O)[C@@H](OCc1ccccc1)C(=O)Nc1ccc(O)cc1C ; dose: 10 µM ; method: absorbance ; result: 0%
CC1CCC2(C(=O)O)CCC3(C)C(=CCC4C5(C)CCC(O)C(C)(C(=O)O)C5=CCC43C)C2C1C ; dose: 100 µg/mL ; method: substrate cleavage / fluorescence ; result: <50%
CC(C)[C@H](NC(=O)Cc1ccccn1)C(=O)N[C@@H](Cc1ccccc1)[C@@H](O)[C@H](O)[C@H](Cc1ccccc1)NC(=O)[C@@H](NC(=O)Cc1ccccn1)C(C)C ; dose: 0.005 µM ; method: fluorescence ; result: 62%
COC(=O)c1cccc(CNC(=O)[C@H]2N(C(=O)[C@@H](O)[C@H](Cc3ccccc3)NC(=O)COc3c(C)cccc3C)CSC2(C)C)c1 ; dose: 0.05 µM ; method: HPLC ; result: 45%
CC(C)(C)OC(=O)N[C@@H](Cc1ccccc1)[C@@H](O)[C@H](O)[C@H](Cc1ccccc1)NC(=O)OC(C)(C)C ; dose: 0.1 µM ; method: fluorescence ; result: 67%
Cc1c(O)cccc1C(=O)N[C@@H](Cc1ccccc1)[C@H](O)C(=O)N1CSC(C)(C)[C@H]1C(=O)NC1CCc2ccccc21 ; dose: 0.05 µM ; method: HPLC ; result: 91.2%
CC1=CC(C)(C)Nc2ccc(OC(=O)c3ccco3)cc21 ; dose: 150 µM ; result: 30.33%
CC(C)[C@H](NC(=O)[C@H](OCc1ccccc1)[C@H](O)[C@@H](O)[C@@H](OCc1ccccc1)C(=O)N[C@H](C(=O)OCc1ccccc1)C(C)C)C(=O)OCc1ccccc1 ; dose: 10 µM ; method: absorbance ; result: 0%
Cc1ccccc1-n1nnc(C(c2ccccc2)(c2ccccc2)n2ccnc2)c1C ; dose: 50 µg/mL ; method: substrate cleavage / fluorescence ; result: 52.6%
O=c1c(-c2ccc(O)cc2)coc2cc(O)cc(O)c12 ; dose: 1000 µg/mL ; method: substrate cleavage / fluorescence ; result: 75%
O=C1C[C@@H](c2ccc(O)cc2)Oc2cc(O)cc(O)c21 ; dose: 100 µg/mL ; method: FRET ; result: 13.1%
CC(C)C/C=C/[C@@H](C)C1CCC2C3=C[C@@H](O)[C@@]4(O)C[C@@H](O)CC[C@]4(C)C3CC[C@@]21C ; dose: 240 µM ; method: substrate cleavage ; result: 17.61%
O=c1cc(-c2ccc(O)cc2)oc2cc(O)c(O)c(O)c12 ; dose: 100 µg/mL ; method: FRET ; result: 71.7%
Cc1cc(C)c(CNC(=O)[C@H]2N(C(=O)[C@@H](O)[C@H](Cc3ccccc3)NC(=O)COc3c(C)cccc3C)CSC2(C)C)c(=O)[nH]1 ; dose: 0.05 µM ; method: HPLC ; result: 20.9%
NC(=O)C[C@H](NC(=O)OCc1ccccc1)C(=O)NC(Cc1ccccc1)C(O)C(Cc1ccccc1)NC(=O)[C@H](CC(N)=O)NC(=O)OCc1ccccc1 ; dose: 0.91 µM ; method: fluorescence ; result: 51%
Cc1cccc(C)c1OCC(=O)N[C@@H](Cc1ccccc1)[C@H](O)C(=O)N1CSC(C)(C)[C@H]1C(=O)NCc1ccc(C(N)=O)cc1 ; dose: 0.05 µM ; method: HPLC ; result: 3.3%
COC(=O)[C@H](CC(C)C)NC(=O)[C@H](OCc1ccccc1)[C@H](O)[C@@H](O)[C@@H](OCc1ccccc1)C(=O)N[C@@H](CC(C)C)C(=O)OC ; dose: 10 µM ; method: absorbance ; result: 0%
O=c1c2c(nc3nc(COc4ccccc4)[nH]n13)CCC2 ; dose: 150 µM ; result: 42.23%
CC(C)[C@H](NC(=O)N(C)Cc1ccccn1)C(=O)N[C@@H](Cc1ccccc1)[C@H](O)[C@@H](O)[C@H](Cc1ccccc1)NC(=O)[C@@H](NC(=O)N(C)Cc1ccccn1)C(C)C ; dose: 0.001 µM ; method: fluorescence ; result: 68%
O=C(/C=C/c1ccc(O)cc1)OCC1OC(OC2(COC(=O)/C=C/c3ccc(O)cc3)OC(COC(=O)/C=C/c3ccc(O)cc3)C(O)C2OC(=O)/C=C/c2ccc(O)cc2)C(O)C(O)C1O ; dose: 100 µg/mL ; method: substrate cleavage / fluorescence ; result: 95.38%

For reference, 2 entries again:

| smiles | dose | method | result |
|---|---|---|---|
| CC(C)[C@H](NC(=O)OCc1ccccn1)C(=O)N[C@@H](Cc1ccccc1)[C@H](O)[C@H](O)[C@H](Cc1ccccc1)NC(=O)OC(C)(C)C | 0.005 µM | fluorescence | 67% |
| O=C(NCc1ccncc1)[C@H](OCc1ccccc1)[C@H](O)[C@@H](O)[C@@H](OCc1ccccc1)C(=O)NCc1ccncc1 | 10 µM | absorbance | 0% |

Lines come from different laboratories, so protocols vary.